# Assay results from patent publication US10889573B2, “Anthelmintic quinoline-3-carboxamide derivatives” (Bayer Animal Health GMBH, priority 2016, dated 2021).
# System: Cooperia curticei
# Assay: In vitro assay 6: Cooperia curticei (COOPCU L3), larval mortality
# Conditions: 0.8 ppm, after 5 days
structure (smiles),measurement,value
O=C(N[C@H]1CCOc2ccccc21)c1cnc2c(-c3cc(F)cc(F)c3F)c(F)ccc2c1N1CCOCC1 [Example 540],activity (larval mortality),80%
